# Test results: paper doi:10.1101/2023.01.09.523197
# For at least one entry, the source does not settle the construct or the ends of the probe. At least one verdict rests on a figure or table, not on a statement of the authors.
# Tested on: GlnR + RNAP holoenzyme
# Assay: EMSA
sequence,measurement,value
ACCGTGCCTTCGTCACGGCGGCGAAACAACGAGGGGCTTCCACCGAAACCGCGCTGCGTCAATGTCGTGGCGCATAACCGGCCCACCCCTCACCGCCCGCCCGCCAGGCACGTACGAAGGAAGGATTGGTATGTGGTATATTCGTACGTGCC (double strand) [amtB4 DNA],binding result,binds
